PubChem BioAssay AID624099, ICCB-Longwood – 2012
The whole screen tested about 21,000 reagents; shown is a random part of them. 497 of all reagents (2.4%) were called active. 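Higher z means weaker E2 silencing; only reporter increases were scored, and knock-downs that hurt cell survival may mask genuine repressor factors.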 Unmarked entries are inactive.

Aim: 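Host factors E2 relies on to silence an HPV18 LCR reporter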 (primary screen)
Cells: human C33A cervical carcinoma cells (HPV-negative) stably expressing BPV1 E2 and an HPV18 LCR luciferase reporter
Knock-down reagent: siRNA pool against human genes, 40 nM
Time to read-out: 72 h
Measured: 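HPV18 LCR reporter light per well, converted to plate-wise z-scores that exclude control wells, and averaged over triplicate plates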
Reading the numbers: mean z-score and z-score: higher = stronger reporter signal, weaker E2 silencing
Rule for the call: 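Hit if mean z-score reaches 2 and two or more of three replicate z-scores also reach 2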

target gene,mean z-score,"z-score, replicate A","z-score, replicate B","z-score, replicate C"
"SPTBN1 (spectrin beta, non-erythrocytic 1)",0.37,0.79,0.04,0.28
"TECRL (trans-2,3-enoyl-CoA reductase like)",-0.83,-1.17,-0.87,-0.43
LTA (lymphotoxin alpha),-0.71,-1.22,-0.36,-0.54
CSRP2 (cysteine and glycine rich protein 2),-0.63,-0.65,-0.72,-0.5
NFE2L3 (NFE2 like bZIP transcription factor 3),-0.67,-0.63,-0.75,-0.64
THG1L (tRNA-histidine guanylyltransferase 1 like),1.55,1.88,1.5,1.26
VSTM4 (V-set and transmembrane domain containing 4),1.13,1.22,1.26,0.92
TUSC8 (tumor suppressor candidate 8),0,0.16,-0.06,-0.1
RBM41 (RNA binding motif protein 41),-0.85,-0.87,-0.79,-0.89
BEND6 (BEN domain containing 6),0.8,0.85,0.9,0.66
"SEC22B (SEC22 homolog B, vesicle trafficking protein)",1.12,0.89,1.38,1.1
NEXN (nexilin F-actin binding protein),0.01,0.2,-0.34,0.16
MYH13 (myosin heavy chain 13),-0.15,-0.28,-0.28,0.11
CAPSL (calcyphosine like),-0.25,-0.35,0.01,-0.42
TNFAIP8 (TNF alpha induced protein 8),-0.57,-0.88,-0.37,-0.48
"CFC1 (cryptic, EGF-CFC family member 1)",-0.25,-0.32,-0.12,-0.32
IGF2BP2 (insulin like growth factor 2 mRNA binding protein 2),0.32,1.26,-0.41,0.11
PCDHB14 (protocadherin beta 14),0.74,0.71,0.97,0.55
GPR32 (G protein-coupled receptor 32),0.9,0.81,0.87,1.04
STX4 (syntaxin 4),-0.49,-0.17,-0.6,-0.7
RPL12 (ribosomal protein L12),1.03,1.14,0.84,1.11
ZC3H12B (zinc finger CCCH-type containing 12B),1.13,1.2,1.06,1.12
LOC402530 (retired record),1.69,1.72,1.55,1.79

Next part; the last 6 above are carried over.
target gene,mean z-score,"z-score, replicate A","z-score, replicate B","z-score, replicate C"
PCDHB14 (protocadherin beta 14),0.74,0.71,0.97,0.55
GPR32 (G protein-coupled receptor 32),0.9,0.81,0.87,1.04
STX4 (syntaxin 4),-0.49,-0.17,-0.6,-0.7
RPL12 (ribosomal protein L12),1.03,1.14,0.84,1.11
ZC3H12B (zinc finger CCCH-type containing 12B),1.13,1.2,1.06,1.12
LOC402530 (retired record),1.69,1.72,1.55,1.79
NLGN4X (neuroligin 4 X-linked),-0.44,-0.6,-0.12,-0.62
KCTD5 (potassium channel tetramerization domain containing 5),1.13,1.06,1.03,1.3
MRPS18B (mitochondrial ribosomal protein S18B),-0.16,-0.06,0,-0.42
KRTCAP2 (keratinocyte associated protein 2),2.1 (active),2.41,1.49,2.39
FKBP10 (FKBP prolyl isomerase 10),-0.24,0.4,-0.22,-0.89
PTPRB (protein tyrosine phosphatase receptor type B),0.62,0.65,0.83,0.37
METTL25 (methyltransferase like 25),0.36,0.2,0.43,0.46
"POLR2F (RNA polymerase II, I and III subunit F)",-3.13,-3.18,-3.15,-3.06
PLA2G2C (phospholipase A2 group IIC),-2.9,-2.8,-3.19,-2.71
ARL1 (ARF like GTPase 1),-0.35,-0.42,-0.23,-0.38
KRIT1 (KRIT1 ankyrin repeat containing),0.08,-0.2,0.19,0.26
UBE2T (ubiquitin conjugating enzyme E2 T),-1.24,-1.17,-1.46,-1.09
BTNL9 (butyrophilin like 9),0.17,0.33,-0.15,0.33
PTRH2 (peptidyl-tRNA hydrolase 2),-0.36,-0.04,-0.44,-0.59
LOC388006 (retired record),-1.53,-1.78,-1.47,-1.34
TSPYL3 (TSPY like 3),-1.59,-1.7,-1.72,-1.35
HTR5A (5-hydroxytryptamine receptor 5A),1.19,1.39,0.94,1.25
IMPDH1 (inosine monophosphate dehydrogenase 1),0.08,0.26,0.07,-0.08
SEPHS1P1 (selenophosphate synthetase 1 pseudogene 1),-0.8,-0.59,-0.83,-0.98
"CARS2 (cysteinyl-tRNA synthetase 2, mitochondrial)",-0.86,-1.09,-1.13,-0.35
RGS7BP (regulator of G protein signaling 7 binding protein),0.69,0.65,0.58,0.85
CYBC1 (cytochrome b-245 chaperone 1),-1,-1.28,-1.28,-0.43
PTCH2 (patched 2),-0.66,-0.71,-0.72,-0.53
TMEM236 (transmembrane protein 236),1.09,1.13,1.08,1.06
DNAJB5 (DnaJ heat shock protein family (Hsp40) member B5),-0.48,-0.53,-0.54,-0.36
MFSD8 (major facilitator superfamily domain containing 8),-0.64,-0.29,-0.98,-0.64
PNMA6A (PNMA family member 6A),1.96,1.67,1.86,2.35
ELN (elastin),1.78,1.65,1.82,1.88
PPTC7 (protein phosphatase targeting COQ7),-1.63,-1.67,-1.68,-1.53
ANKZF1 (ankyrin repeat and zinc finger peptidyl tRNA hydrolase 1),-0.61,-0.66,-0.58,-0.58
MAPK13 (mitogen-activated protein kinase 13),-1.51,-1.9,-1.38,-1.24
LELP1 (late cornified envelope like proline rich 1),0.39,0.48,0.15,0.56
SNX24 (sorting nexin 24),1.81,1.79,1.74,1.9
POT1 (protection of telomeres 1),0.44,0.54,0.5,0.27
